Measurements: patent US20150023988A1
Several values for one entry are separate records, joined by “and”; a condition that tells them apart may be missing. Equal entries are not always repeated.

Columns and labels:
Assay in all cases: cell-based or functional assay
[1] = target: human voltage-gated sodium channel Nav1.7 (human) (UniProt Q15858)
[2] = target: human voltage-gated sodium channel Nav1.4 (human) (UniProt P35499)
[3] = target: human voltage-gated sodium channel Nav1.5 (human) (UniProt Q14524)
[4] = target: human voltage-gated sodium channel Nav1.7 (human), Q15858
[5] = target: human voltage-gated sodium channel Nav1.4 (human), P35499

Molecule	PX hNav1.7 Tonic IC50 [1] [nM]	PX hNav1.5 Tonic IC50 [3]	PX hNav1.4 Tonic IC50 [2]	other results
Ala-[Nle6]JzTx-V(1-29) (peptide; modification not given)	0.307			
Tyr-[Nle6]JzTx-V(1-29) (peptide; modification not given)	0.372			
Atz(NPEG10)-[Nle6]JzTx-V(1-29) (peptide; modification not given)				IC50 (IonWorks Quattro) [1]: 70 nM; Nav1.4/Nav1.7 (ratio of IC50s) [2]: 2
Nle-[Nle6]JzTx-V(1-29) (peptide; modification not given)	0.223	830 nM	4.6 nM	
Val-[Nle6]JzTx-V(1-29) (peptide; modification not given)	0.551			
[Glu20;Tyr28;1-Nal29]JzTx-V(1-29) (peptide; modification not given)				IC50 (IonWorks Quattro) [1]: 50 nM; Nav1.4/Nav1.7 (ratio of IC50s) [2]: 91
[Glu20; Ser28]JzTx-V(1-29) (peptide; modification not given)		> 10000 nM and 14600 nM	4790 nM and 3580 nM and 2970 nM	
[Glu20; Cit28]JzTx-V(1-29) (peptide; modification not given)	5.6	> 10000 nM	6020 nM	
[Glu1]JzTx-V(1-29) (peptide; modification not given)	0.3	6440 nM	8 nM	
hPhe-[Nle6]JzTx-V(1-29) (peptide; modification not given)	0.476	440 nM	4.8 nM	
[Glu20; Tyr28; Leu29]JzTx-V(1-29) (peptide; modification not given)	2.6	7330 nM	626 nM	
[Nle6;Atz(NPEG10)29]JzTx-V(1-29) (peptide; modification not given)				IC50 (IonWorks Quattro) [3]: > 7000 nM; IC50 (IonWorks Quattro) [1]: 400 nM; Nav1.4/Nav1.7 (ratio of IC50s) [2]: 2
bAla-[Nle6]JzTx-V(1-29) (peptide; modification not given)	0.951	700 nM	3.2 nM	
Pro-[Nle6]JzTx-V(1-29) (peptide; modification not given)	0.372			
[Glu20; Tyr28]JzTx-V(1-29) (peptide; modification not given)	0.9	11400 nM	1270 nM	
[Atz(NPEG10)1; Nle6]JzTx-V(1-29) (peptide; modification not given)	1	950 nM	15 nM	Nav1.5/Nav1.7 [3]: 946 fold; Nav1.4/Nav1.7 [2]: 15 fold
[Glu20; Val28]JzTx-V(1-29) (peptide; modification not given)	4.1	5500 nM	1310 nM	
[Ala20]JzTx-V(1-29) (peptide; modification not given)	12	2750 nM	100 nM	
[Glu20; Tyr28; 2-Nal29]JzTx-V(1-29) (peptide; modification not given)	4.6	1990 nM	1220 nM	
Sar-[Nle6]JzTx-V(1-29) (peptide; modification not given)	0.325	830 nM	6.1 nM	

Molecule	PX hNav1.7 Tonic IC50 [1] [nM]	PX hNav1.5 Tonic IC50 [3]	PX hNav1.4 Tonic IC50 [2]	other results
AllylG-[Nle6]JzTx-V(1-29) (peptide; modification not given)	0.488			
Gly-[Nle6]JzTx-V(1-29) (peptide; modification not given)	0.384			
Ile-[Nle6]JzTx-V(1-29) (peptide; modification not given)	0.519			
D-Leu-[Nle6]JzTx-V(1-29) (peptide; modification not given)	0.151	410 nM	28.7 nM	
[Pra1; Nle6; Glu28]JzTx-V(1-29) (peptide; modification not given)	0.269	4620 nM	150 nM	
CyA-[Nle6]JzTx-V(1-29) (peptide; modification not given)	0.307			
[Nle6; Atz(NPEG10)29]JzTx-V(1-29) (peptide; modification not given)	22			
[Glu20;Tyr28;2-Nal29]JzTx-V(1-29) (peptide; modification not given)				IC50 (IonWorks Quattro) [3]: > 5000 nM; IC50 (IonWorks Quattro) [2]: > 5000 nM
[Glu1;Tyr28]JzTx-V(1-29) (peptide; modification not given)				IC50 (IonWorks Quattro) [3]: > 5000 nM; IC50 (IonWorks Quattro) [2]: 700 nM; Nav1.4/Nav1.7 (ratio of IC50s) [2]: 16
Pra-[Nle6; Glu28]JzTx-V(1-29) (peptide; modification not given)	0.515		130 nM	
[Glu28]JzTx-V(1-29) (peptide; modification not given)	1	8800 nM	300 nM	
Phe-[Nle6]JzTx-V(1-29) (peptide; modification not given)	0.493			
Leu-[Nle6]JzTx-V(1-29) (peptide; modification not given)	0.134			
[Glu20;Atz(NPEG10)28]JzTx-V(1-29) (peptide; modification not given)				Nav1.4/Nav1.7 (ratio of IC50s) [2]: 3
[Glu20; Tyr28; Nle29]JzTx-V(1-29) (peptide; modification not given)	6.2	9770 nM	786 nM	
Abu-[Nle6]JzTx-V(1-29) (peptide; modification not given)	0.143	480 nM	11 nM	
[Glu20; 1-Nal24; Tyr28]JzTx-V(1-29) (peptide; modification not given)	12		5210 nM	
[Glu20; Nva28]JzTx-V(1-29) (peptide; modification not given)	12.8	7820 nM	5190 nM	
[Atz(NPEG10)1;Nle6]JzTx-V(1-29) (peptide; modification not given)				IC50 (IonWorks Quattro) [3]: > 7000 nM; IC50 (IonWorks Quattro) [1]: 100 nM; Nav1.4/Nav1.7 (ratio of IC50s) [2]: 4 and 3
D-Ala-[Nle6]JzTx-V(1-29) (peptide; modification not given)	0.957	730 nM	5.1 nM	

Molecule	PX hNav1.7 Tonic IC50 [1] [nM]	PX hNav1.5 Tonic IC50 [3]	PX hNav1.4 Tonic IC50 [2]	other results
Trp-[Nle6]JzTx-V(1-29) (peptide; modification not given)	0.334			
[Glu1, 20; Tyr28]JzTx-V(1-29) (peptide; modification not given)	5.5	> 10000 nM	939 nM	
[Nle6; Atz(NPEG10)11]JzTx-V(1-29) (peptide; modification not given)	9.3	1860 nM	27 nM	Nav1.5/Nav1.7 [3]: 200 fold; Nav1.4/Nav1.7 [2]: 3 fold
[Glu29]JzTx-V(1-29) (peptide; modification not given)	261	> 10000 nM	11300 nM	
D-Phe-[Nle6]JzTx-V(1-29) (peptide; modification not given)	0.351	620 nM	6.8 nM	
hLeu-[Nle6]JzTx-V(1-29) (peptide; modification not given)	0.676	420 nM	8.5 nM	
[Glu20; Tyr28; 1-Nal29]JzTx-V(1-29) (peptide; modification not given)	4.5	2160 nM	1670 nM	
Nva-[Nle6]JzTx-V(1-29) (peptide; modification not given)		490 nM	11.6 nM	
[Glu20,Trp29]JzTx-V(1-29) (peptide; modification not given)				average hNav1.7 IC50, PX format [1]: 1.5 nM; Nav1.4 selectivity (relative to hNav1.7) [2]: > 1000 fold
VYCQKWLWTCDSKRKCCEGLECKLWCRKIW (modifications not checked) [Nva-[Nle6; Lys(Pra)14; Glu20, Trp29]JzTx-V(1-29)]				PX hNav1.7 Tonic IC50 [4]: 9.59 nM
VYCQKWLWTCDSKRKCCEGLECKLWCRKIW (modifications not checked) [Nva-[Leu6; Lys(Pra)14; Glu20; Trp29]JzTx-V(1-29)]				PX hNav1.7 Tonic IC50 [4]: 10.4 nM
VYCQKWLWTCDSKRKCCEGLRCKLWCRKEI (modifications not checked) [Nva-[Nle6; Lys(Pra)14; Glu28]JzTx-V(1-29)]				PX hNav1.7 Tonic IC50 [4]: 2.19 nM; PX hNav1.4 Tonic IC50 [5]: 217 nM
VYCQKWLWTCDSKRKCCEGLRCKLWCRKEI (modifications not checked) [Nva-[Leu6; Lys(Pra)14; Glu28]JzTx-V(1-29)]				PX hNav1.4 Tonic IC50 [5]: 293 nM and 300 nM
AYCQKWLWTCDSKRKCCEGLECKLWCRKII (modifications not checked) [CyA-[Nle6, Lys(Pra)14, Glu20]JzTx-V(1-29)]				PX hNav1.7 Tonic IC50 [4]: > 100 nM; PX hNav1.4 Tonic IC50 [5]: > 10000 nM
VYCQKWLWTCDSKRKCCEGLECKLWCRKYI (modifications not checked) [Nva-[Nle6; Lys(Pra)14; Glu20; Tyr28]JzTx-V(1-29)]				PX hNav1.7 Tonic IC50 [4]: 2.96 nM
VYCQKWLWTCDSKRKCCEGLECKLWCRKYI (modifications not checked) [Nva-[Leu6; Lys(Pra)14; Glu20; Tyr28]JzTx-V(1-29)]				PX hNav1.7 Tonic IC50 [4]: 1.95 nM
AYCQKWLWTCDSKRKCCEGLRCKLWCRKII (modifications not checked) [CyA-[Nle6, Lys(Pra-NPEG3)14]JzTx-V(1-29)]				PX hNav1.7 Tonic IC50 [4]: 0.885 nM and 0.845 nM
AYCQKWLWTCDSKRACCKGLRCKLWCRKII (modifications not checked) [CyA-[Nle6, Lys(Pra-NPEG3)17]JzTx-V(1-29)]				PX hNav1.7 Tonic IC50 [4]: 3.64 nM
DCLGFFRKCIPDADKCCRPNLVCSRTHKWCKYVF (modifications not checked) [[Phe6,Atz(500 Da EtO-PEG*-{[Phe6,Atz13*]GpTx-1(1-34)})13]GpTx-1(1-34)]				Nav1.7 PX IC50 [4]: 19 nM
